Laboratory results reported in patent US20240277795A1, “INHIBITORS OF CYSTEINE PROTEASES AND METHODS OF USE THEREOF” (Pardes Biosciences, Inc., priority 2021, published 2024).

Protein sequences, listed by entry. Tags and fused reporters are not part of them. Residues count along the entry.
UniProt P0C6X6, 3247-3549 limits assumed: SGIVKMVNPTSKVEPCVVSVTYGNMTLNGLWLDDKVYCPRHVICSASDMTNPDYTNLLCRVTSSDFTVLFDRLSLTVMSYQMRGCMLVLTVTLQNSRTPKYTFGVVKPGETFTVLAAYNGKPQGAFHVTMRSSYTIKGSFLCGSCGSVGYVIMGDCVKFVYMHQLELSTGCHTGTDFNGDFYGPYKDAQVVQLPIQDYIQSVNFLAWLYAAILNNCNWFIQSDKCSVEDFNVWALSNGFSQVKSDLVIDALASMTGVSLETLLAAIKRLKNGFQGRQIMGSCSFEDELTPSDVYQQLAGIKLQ
UniProt P0C6X1, 2966-3267 limits assumed: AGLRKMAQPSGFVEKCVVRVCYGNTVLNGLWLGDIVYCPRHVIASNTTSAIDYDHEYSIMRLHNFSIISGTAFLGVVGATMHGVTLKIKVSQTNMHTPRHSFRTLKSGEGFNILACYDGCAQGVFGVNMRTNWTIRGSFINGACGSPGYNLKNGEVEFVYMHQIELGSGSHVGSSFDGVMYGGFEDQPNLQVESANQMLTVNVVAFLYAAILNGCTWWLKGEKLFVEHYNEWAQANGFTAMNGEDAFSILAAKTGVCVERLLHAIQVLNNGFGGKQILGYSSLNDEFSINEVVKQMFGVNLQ

Columns and labels:
OC43 Mpro = OC43 Mpro (Human coronavirus OC43, UniProt P0C6X6); assay: OC43 Mpro enzymatic assay; conditions: read-out: OC43 Mpro IC50; Table 3
Method: (§1) Compounds were assayed using standard methods to assess compound activity and IC50. As an exemplary for assessment of the SARS-COV2 Mpro, the C-His6-tagged Mpro (NC_045512) was cloned, expressed in E. coli and purified. The assay buffer contained 20 mM of Tris-HCl (pH 7.3), 100 mM of NaCl, 1 mM of EDTA, 5 mM of TCEP and 0.1% BSA. The final concentrations of the Mpro protein and substrate were 25 nM and 25 μM, respectively, in the Mpro enzymatic assay. The Km of the Mpro substrate for the protease was 13.5 μM.
(§2) The compounds were added to an assay plate. For 100% inhibition control (HPE, hundred percent effect), 1 μM GC376 was added. For no inhibition control (ZPE, zero percent effect), no compound was added.
(§3) IC50 values of compounds were calculated with the GraphPad Prism software using the nonlinear regression model of log(inhibitor) vs. response—Variable slope (four parameters). The inhibition activity was calculated using the formula below, IC50 values is calculated using the Inhibition % data.
(§4) [formula] • #HEP: Hundred percent effect controls. Containing substrate+enzyme+1 μM GC376. • ZPE: Zero percent effective controls. Containing enzyme+substrate, no compound. • Sample: Compound activity testing wells. Containing compound+enzyme+substrate. • BG: Compound background control wells. Containing compound+substrate, no enzyme.

229E Mpro = 229E Mpro (Human coronavirus 229E, UniProt P0C6X1); assay: 229E Mpro enzymatic assay; conditions: read-out: 229E Mpro IC50; Table 3
Method: as §1, §2, §3, §4

SARS-COV2 Mpro = SARS-COV2 Mpro (Severe acute respiratory syndrome coronavirus 2, UniProt P0DTD1); assay: COVID-19 (nCoV-2019, SARS-CoV2) Mpro enzymatic assay; conditions: read-out: COVID-19 Mpro IC50; Table 3

Measured: IC50

CC1(C)[C@@H]2[C@@H](C(=O)N[C@H](C#N)C[C@@H]3CC4(CC4)NC3=O)N(C(=O)C(NC(=O)C(F)(F)F)C3CC(F)(F)C3)C[C@@H]21 (single isomer, unassigned)
< 2000 nM: all assays above
